# Assay results: paper PMC7969873 (Cell Reports, 2021)
# B1: IFN-β: interferon (IFN)-β (protein, UniProt P01574 22-187, looked up)
# Interferon beta: MSYNLLGFLQRSSNFQCQKLLWQLNGRLEYCLKDRMNFDIPEEIKQLQQFQKEDAALTIYEMLQNIFAIFRQDSSSTGWNETIVENLLANVYHQINHLKTVLEEKLEKEDFTRGKLMSSLHLKRYYGRILHYLKAKEYSHCAWTIVRVEILRNFYFINRLTGYLRN
# Test system: SARS-CoV-2
# Format: cell-based
# Conditions: Vero E6 cells; 48 hpi; hydroxychloroquine and EIDD-2801 10 μM
molecule,measurement,value
B1,blocking of SARS-CoV-2 infection (IFA),effectively blocked
